Laboratory results as given in patent US20160053242A1, “THERMOSTABLE NUCLEASE” (priority 2013, published 2016).

How the values were obtained:
[1] = test system: RNA; test: Assay of nuclease activity, substrate specificity: RNA
[2] = test system: calf thymus ssDNA; test: Assay of nuclease activity, substrate specificity: ssDNA; conditions: 20 mM Mg2+, Mn2+, Co2+ individually
[3] = test system: plasmid DNA pET-24a(+) (closed circular double stranded); test: Assay of nuclease activity, substrate specificity: plasmid DNA
[4] = test system: calf thymus dsDNA; test: Assay of nuclease activity, DNA degradation level on agarose gel
[5] = test system: calf thymus dsDNA; test: Degradation of calf thymus dsDNA by recombinant E. coli expressing Nucyep1 or Nucyep2 (FIG. 4b); conditions: E. coli BL21star (DE3)plysS; for Nuclease activity in induced recombinant bacteria: IPTG induced; for Nuclease activity in non-induced recombinant bacteria: without IPTG induction
[6] = 20 mM Mg2+, Mn2+, Co2+ individually
[7] = digestion of calf thymus dsDNA at 37° C.

B1: Nucyep1: recombinant Nucyep without peptide signal and stop codon, with C-terminal 6×His-tag; SEQ ID NO. 8 (protein)
chain: MSAPKTILSAPTVTEQNLPAAAIDNCLVGCPTGGSDQTVIRDVYTLNNNSHTKFANWVAYKVTKSSQASNHPRKWAQDPDLPDSDTLAPADYTGANQKLAVDRGHQAPLSLLAGNEDSQALNYLSNITPQKAALNQGAWVRLEDQERNLANRPDVTAVYSVTGPLFERHIATLPAKPTVEIPSGYWKIIFIGTSPDKGQYAAFLMDQNTAKSANFCDYQVNVDTIEAKTNPQLTIWSNLPADVAQIIKSQKGTLAQTIGCDLEHHHHHH
modifications: C-terminal 6xHis tag; Yersinia enterocolitica sub. paleartica
Nuclease activity on RNA with metal ion [1, 6]: high nuclease activity
Nuclease activity on RNA without addition of metal ions ([1]; no metal ion added): obligate requirement of divalent Mg^2+, Mn^2+, Co^2+
Nuclease activity on ssDNA with metal ion [2]: high nuclease activity
Nuclease activity on plasmid DNA with metal ion [3, 6]: high nuclease activity
Nuclease activity on plasmid (circular ds) DNA without addition of metal ions ([3]; no metal ion added): obligate requirement of divalent Mg^2+, Mn^2+, Co^2+
Best activator metal ion overall [4]: Mn^2+
Nuclease activity at 0° C. ([4]; 0° C.): works
Effect of 2 mM CuSO4 on nuclease activity ([4]; 2 mM CuSO4): completely inhibited
Effect of 2 mM ZnCl2 on nuclease activity ([4]; 2 mM ZnCl2): completely inhibited
Effect of 2 mM and 10 mM NaCl, KCl, CoCl2, NiSO4 on nuclease activity ([4]; 2 mM and 10 mM NaCl, KCl, CoCl2, NiSO4): did not have obvious effects
Effect of 10 mM BaCl2 on nuclease activity ([4]; 10 mM BaCl2): partly inhibited
Effect of 10 mM CaCl2 on nuclease activity ([4]; 10 mM CaCl2): completely inhibited
Nuclease activity on dsDNA with metal ion [4, 6]: high nuclease activity
Effect of 0.1% SDS on nuclease activity ([4]; 0.1% SDS): completely inhibit
Effect of 100 mM NaCl, KCl, NiSO4 on nuclease activity ([4]; 100 mM NaCl, KCl, NiSO4 (data not shown)): no effect
Effect of 1 M urea on nuclease activity ([4]; 1 M urea): had an effect
Effect of 50% glycerol on nuclease activity ([4]; 50% glycerol): small inhibition
Effect of BSA on nuclease activity ([4]; BSA 0.1 to 1 mg/ml): greatly increased the nuclease activity
Effect of Co2+ at 20 mM or 50 mM on nuclease activity ([4]; Co2+ 20 mM or 50 mM): greatly increased the nuclease activity
Effect of 2 mM EDTA on nuclease activity ([4]; EDTA 2 mM): did not affect
Effect of 100 mM EDTA on nuclease activity ([4]; EDTA 100 mM): totally inhibited
Effect of 5 to 10 mM EDTA on nuclease activity ([4]; EDTA 5 to 10 mM): slight inhibition effect
pH range in which the enzyme is active ([4]; FIG. 7a): 3.6-9.9
Optimal Mg2+ concentration to activate the nuclease activity ([4]; Mg2+): 10 mM
Effect of 50 mM Mg2+ on enzyme activity ([4]; Mg2+ 50 mM): the same as with no metal ion
Effect of 100 mM Mg2+ on nuclease activity ([4]; Mg2+ 100 mM): notably diminished
Optimal Mn2+ concentration ([4]; Mn2+): 10 to 20 mM
Effect of 50 mM Mn2+ on nuclease activity ([4]; Mn2+ 50 mM): could activate the nuclease activity
Effect of 100 mM Mn2+ on nuclease activity ([4]; Mn2+ 100 mM): did inhibit
Effect of dNTPs on nuclease activity ([4]; dNTPs 0.05 to 1 mM): little inhibition
Activity left after heating at 80° C. for 60 minutes (1 h) [4, 7]: more than 5%
Activity left after heating at 100° C. for 20 minutes [4, 7]: more than 5%
Optimum temperature ([4]; examined within 0 to 100° C.): 35-40 °C
Effect of glycerol 5%-30% on nuclease activity ([4]; glycerol 5%-30%): no effect
Nuclease activity after heating at 80° C. for 1 h ([4]; in words): active
Nuclease activity after heating at 100° C. for 20 min ([4]; in words): active
Best activator metal ion at 2 mM ([4]; metal ion 2 mM): Mg^2+
Best activator metal ions at 10 mM ([4]; metal ion 10 mM): Mg^2+ and Mn^2+
Activity retained at pH 7.24 ([4]; pH 7.24): greater than 75%
Nuclease activity at urea concentration lower than 8 M ([4]; urea lower than 8 M): still had some nuclease activity
Nuclease activity in induced recombinant bacteria [5]: nuclease activity detected
Nuclease activity in non-induced recombinant bacteria [5]: weak nuclease activity

B2: Nucyep2: recombinant Nucyep with peptide signal, without stop codon, with C-terminal 6×His-tag; SEQ ID NO. 10 (protein)
chain: MAKFNLIKLLPVLLLTACTTTDHSSAPKTILSAPTVTEQNLPAAAIDNCLVGCPTGGSDQTVIRDVYTLNNNSHTKFANWVAYKVTKSSQASNHPRKWAQDPDLPDSDTLAPADYTGANQKLAVDRGHQAPLSLLAGNEDSQALNYLSNITPQKAALNQGAWVRLEDQERNLANRPDVTAVYSVTGPLFERHIATLPAKPTVEIPSGYWKIIFIGTSPDKGQYAAFLMDQNTAKSANFCDYQVNVDTIEAKTNPQLTIWSNLPADVAQIIKSQKGTLAQTIGCDGSNSSSVDKLAAALEHHHHHH
modifications: C-terminal 6xHis tag; Yersinia enterocolitica sub. paleartica
Nuclease activity in induced recombinant bacteria [5]: nuclease activity detected
Nuclease activity in non-induced recombinant bacteria [5]: weak nuclease activity
